Like-named read-outs stand apart in the source and are kept apart here. No dose or concentration is given here for some results.
Tests used:
Type in all cases: cell-based
[1] = tested on: herpes simplex virus type 1 (HSV-1, McIntyre); experiment: Inhibition of virus replication, virus yield by plaque method
[2] = tested on: herpes simplex virus type 2 (HSV-2, MS); experiment: as above
[3] = tested on: VSV (vesicular stomatitis virus)
[4] = tested on: coxsackie A21
[5] = therapeutic index with ID50 Vero 72 hrs.
[6] = therapeutic index with ID50 Vero 91 hrs.

Molecule | times less inhibitory than phyllanthoside or phyllanthostatin I ([1]; HSV-1, from ED90 values) | T - ID50/ED90, McIntyre [1, 5] | T - ID50/ED90, McIntyre [1, 6] | times less inhibitory than phyllanthoside or phyllanthostatin I ([2]; HSV-2, from ED90 values) | T - ID50/ED90, MS [2, 5] | T - ID50/ED90, MS [2, 6] | T - ID50/ED90, VSV [3, 5] | T - ID50/ED90, VSV [3, 6] | T - ID50/ED90, Col [4, 5] | T - ID50/ED90, Col [4, 6]
COC(=O)C1CCC2C(C1)OC1(CC(OC(=O)/C=C/c3ccccc3)C(C)CO1)C21CO1 (centres unmarked) [Phyllanthocin] | 2-3 | 0.8279 | 0.9931 | 2-3 | 0.7393 | 0.8867 | 0.6818 | 0.8178 | 0.0957 | 0.1148
Phyllanthostatin I |  | 0.5105 | 1.5310 |  | 0.7399 | 2.2193 |  |  |  | 
